The values that follow come from paper PMC3445454, “Broad and Cross-Clade CD4^+ T-Cell Responses Elicited by a DNA Vaccine Encoding Highly Conserved and Promiscuous HIV-1 M-Group Consensus Peptides” (PLoS ONE, 2012).

Amino acid sequences for entries named in this document (tags omitted). A change or cut given only in a name is not applied to a line headed by its entry.
UniProt P04440: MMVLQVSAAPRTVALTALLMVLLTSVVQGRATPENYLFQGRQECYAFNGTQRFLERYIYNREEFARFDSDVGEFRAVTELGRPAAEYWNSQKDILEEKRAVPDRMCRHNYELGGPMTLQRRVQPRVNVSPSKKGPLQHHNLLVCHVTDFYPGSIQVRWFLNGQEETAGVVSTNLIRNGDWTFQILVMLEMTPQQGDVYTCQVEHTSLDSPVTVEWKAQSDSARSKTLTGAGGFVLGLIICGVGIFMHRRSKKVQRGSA
UniProt P20036: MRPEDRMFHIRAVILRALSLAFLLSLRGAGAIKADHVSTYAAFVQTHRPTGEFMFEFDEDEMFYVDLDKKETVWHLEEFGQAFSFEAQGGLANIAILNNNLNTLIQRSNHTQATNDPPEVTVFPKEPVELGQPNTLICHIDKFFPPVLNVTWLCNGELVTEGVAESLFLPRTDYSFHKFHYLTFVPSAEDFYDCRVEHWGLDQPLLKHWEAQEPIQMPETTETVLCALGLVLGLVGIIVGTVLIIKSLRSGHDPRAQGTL

What all share (test): biochemical
Common to all, as to type: binding

Experiment [1] concerns the target HLA-DR DRB1*04:01 (Homo sapiens, UniProt P01903+P01911, A100K/A169T/F76Y/I96L/K127E/L162R/M171V/N62H/P40V/Q125Y/R42H/S133A/S149N/S66Y/V115G/V209L/W38E).
In experiment [2] the target is HLA-DR DRB1*11:01 (Homo sapiens, UniProt P01903+P01911, A100R/A169T/A87E/I96F/K41T/L162R/M171V/P40S/Q125H/Q178H/Q39Y/Q99D/R42S/S66Y/T262R/V115G/W38E).
Experiment [3] deals with HLA-DR DRB1*04:05 (Homo sapiens, UniProt P01903+P01911, A100R/A169T/D86S/F76Y/I96L/K127E/L162R/M171V/N62H/P40V/Q125Y/R42H/S133A/S149N/S66Y/V115G/V209L/W38E).
The target of experiment [4] is HLA-DR DRB1*12:01 (Homo sapiens, UniProt P01903+P01911, A100R/A169T/D57E/D86V/F55L/H45Y/K41T/L162R/M171V/P40S/Q125H/Q178H/Q39Y/Q99D/R42G/S66L/T262R/V114A/V67L/W38E/Y59H/Y61H/Y89S).
Experiment [5] addresses HLA-DR DRB1*16:02 (Homo sapiens, UniProt P01903+P01911, A100R/F76Y/I96L/Q99D/V115G).
For experiment [6], the target named is HLA-DR DRB1*01:01 (Homo sapiens, UniProt P01903+P01911, A100R/D57E/F55L/F60I/F76Y/I96L/L162R/M171V/P40L/Q125E/R42F/V115G/Y59C).
For experiment [7], the target named is HLA-DR DRB1*03:01 (Homo sapiens, UniProt P01903+P01911, A100K/A102G/A103R/A169T/F55Y/I96L/K41T/L162R/M171V/P40S/Q125H/Q178H/Q39Y/R42S/S66N/T106N/T262R/W38E/Y61H).
Experiment [8] addresses HLA-DR DRB1*13:02 (Homo sapiens, UniProt P01903+P01911, A100E/A169T/K41T/L162R/M171V/P40S/Q125H/Q178H/Q39Y/Q99D/R42S/S66N/T262R/V115G/W38E/Y61H).
Experiment [9] addresses HLA-DR DRB1*09:01 (Homo sapiens, UniProt P01903+P01911, A100R/A103E/D57H/D86V/F55Y/F60I/F76Y/I96F/K127E/L162R/M171V/P40D/Q125H/Q99R/R33Q/R42F/S133A/S66N/T210M/V115G/W38K/Y107V/Y59G/Y89S).
The target of experiment [10] is HLA-DR DRB1*08:02 (Homo sapiens, UniProt P01903+P01911, A100R/A103L/A169T/F76Y/H45Y/I96F/K41T/L162R/M171V/P40S/Q125H/Q178H/Q39Y/Q99D/R218S/R42G/S66Y/V115G/W38E).
Experiment [11] deals with HLA-DR DRB1*07:01 (Homo sapiens, UniProt P01903+P01911, A100R/A102G/A103Q/D57E/D86V/E43K/F76Y/K127E/L162R/M171V/P40G/Q125H/Q99D/R33Q/R42Y/R54Q/S133A/S66F/T210M/V115G/Y107V/Y59L/Y89S).
For experiment [12], the target named is T1, HLA-DP DPA1*02:01/DPB1*14:01 (Homo sapiens, UniProt P04440+P20036, A65V/A84D/A85E/E86D/F191V/F38H/G113D/G114E/G40L/I94L/K142R/L158P/L37V/M105V/M116V/M62Q/P115A/Q81R/R125K/T114A/T199I/T259P).
T1 sequence (P20036 29-260 A42M/M62Q/Q81R/T114A/K142R/L158P/F191V/T259P): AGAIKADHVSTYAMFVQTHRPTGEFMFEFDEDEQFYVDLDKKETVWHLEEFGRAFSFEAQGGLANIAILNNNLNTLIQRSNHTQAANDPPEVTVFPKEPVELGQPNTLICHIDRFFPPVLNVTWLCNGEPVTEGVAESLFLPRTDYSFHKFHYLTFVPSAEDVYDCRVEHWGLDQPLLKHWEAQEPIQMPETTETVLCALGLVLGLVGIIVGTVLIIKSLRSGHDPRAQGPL
T1 sequence (P04440 30-258 L37V/F38H/G40L/A65V/A84D/A85E/E86D/I94L/M105V/G113D/G114E/P115A/M116V/R125K/T199I/R223Q): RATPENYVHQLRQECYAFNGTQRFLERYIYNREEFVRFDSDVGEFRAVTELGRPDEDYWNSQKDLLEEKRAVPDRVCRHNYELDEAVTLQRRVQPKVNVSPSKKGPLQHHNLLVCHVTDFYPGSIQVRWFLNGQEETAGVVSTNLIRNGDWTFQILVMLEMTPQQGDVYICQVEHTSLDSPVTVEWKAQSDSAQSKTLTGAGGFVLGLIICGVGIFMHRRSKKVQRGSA

Structures are written as SMILES.

With `CSCC[C@H](NC(=O)[C@@H]1CCCN1C(=O)[C@H](CCCNC(=N)N)NC(=O)[C@H](CC(C)C)NC(=O)[C@@H]1CCCN1C(=O)[C@@H](NC(=O)[C@H](CCC(N)=O)NC(=O)[C@@H]1CCCN1C(=O)[C@H](CCCNC(=N)N)NC(=O)[C@@H](NC(=O)[C@@H]1CCCN1C(=O)[C@H](Cc1ccccc1)NC(=O)CN)C(C)C)C(C)C)C(=O)N[C@H](C(=O)N[C@@H](Cc1ccc(O)cc1)C(=O)N[C@@H](CCCCN)C(=O)NCC(=O)N[C@@H](C)C(=O)N[C@@H](Cc1ccccc1)C(=O)N[C@@H](CC(=O)O)C(=O)N[C@@H](CC(C)C)C(N)=O)[C@@H](C)O` [nef(67-87)], the IC50 came to 98 nM in experiment [1]; 681 nM in experiment [2]; 1320 nM in [3]; 150 nM in experiment [4]; 1720 nM in experiment [5]; 341 nM in experiment [6]. Moreover, the IC50 in [7] turned out to be 4800 nM; in experiment [8], 3410 nM; in experiment [9], 205 nM; in experiment [10], 46 nM; in experiment [11], 4030 nM; in experiment [12], 12200 nM.
For `CC[C@H](C)[C@H](NC(=O)[C@@H](NC(=O)[C@H](CCC(=O)O)NC(=O)[C@@H]1CCCN1C(=O)[C@@H](N)CO)C(C)C)C(=O)N1CCC[C@H]1C(=O)N[C@@H](CCSC)C(=O)N[C@@H](Cc1ccccc1)C(=O)N[C@@H](CO)C(=O)N[C@@H](C)C(=O)N[C@@H](CC(C)C)C(=O)N[C@@H](CO)C(=O)N[C@@H](CCC(=O)O)C(=O)NCC(=O)N[C@@H](C)C(=O)N[C@H](C(N)=O)[C@@H](C)O` [p24(33-48)], the IC50 in experiment [9] is 74 nM; in experiment [12], 2060 nM.
Take `CC[C@H](C)[C@H](NC(=O)[C@H](CCC(=O)O)NC(=O)CN)C(=O)N[C@@H](Cc1ccc(O)cc1)C(=O)N[C@@H](CCCCN)C(=O)N[C@@H](CCCNC(=N)N)C(=O)N[C@@H](Cc1c[nH]c2ccccc12)C(=O)N[C@H](C(=O)N[C@H](C(=O)N[C@@H](CC(C)C)C(=O)NCC(=O)N[C@@H](CC(C)C)C(=O)N[C@@H](CC(N)=O)C(=O)N[C@@H](CCCCN)C(=O)N[C@H](C(=O)N[C@H](C(=O)N[C@@H](CCCNC(=N)N)C(=O)N[C@@H](CCSC)C(=O)N[C@@H](Cc1ccc(O)cc1)C(N)=O)C(C)C)[C@@H](C)CC)[C@@H](C)CC)[C@@H](C)CC` [p24(127-145)]: the IC50 in experiment [1] was found to be 66 nM; in [2], 170 nM; in experiment [3] it was 286 nM; in experiment [5] it was 59 nM; in experiment [7] it was 52 nM; in experiment [8], 66 nM. Also, the IC50 in [9] worked out at 151 nM; in experiment [10], 35 nM; in experiment [11], 2180 nM; in experiment [12], 2250 nM.

The term IC50 denotes the concentration that gives 50% inhibition. High values mean lower potency, low ones higher potency.
